{"source": "PubChem BioAssay AID1259414 (Drosophila RNAi Screening Center, 2018)", "aim": "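Fly genes that alter Wolbachia amount inside host cells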 (primary screen)", "system": "Drosophila JW18 cells infected with Wolbachia", "reagents": "long dsRNA against Drosophila genes, 0.25 µg dsRNA per well of a 384-well plate", "timing": "5 days", "treatment": "cells persistently infected with Wolbachia before knock-down; no added drug", "read-out": "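Imaged fluorescence in situ signal for Wolbachia 23S rRNA per DAPI-counted host cell, given as a robust z-score within each plate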", "reading the numbers": "Wolbachia per cell robust z: higher = more Wolbachia per host cell than the plate typical", "call rule": "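Hit when robust z is 1.5 or more, or -1.5 or less, in at least two of three replicates; excludes dsRNAs with several or no targets, genes not expressed in JW18 and well A1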", "note": "The screen tested about 24,000 reagents; shown is an unselected part of those with a known target gene and a result. In the full data, about 1,210 (5%) were called active. 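Inactive calls also include excluded dsRNAs with several or no targets, genes unexpressed in JW18, and well A1, regardless of score.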 Names joined by + are all predicted targets of the reagent."}
{"Gene":"CNBP","amplicon":"DRSC04116","Wolbachia per cell robust z, rep 1":-0.048,"Wolbachia per cell robust z, rep 2":-5.66,"Wolbachia per cell robust z, rep 3":-2.27,"outcome":"active"}
{"Gene":"CNBP","amplicon":"DRSC21317","Wolbachia per cell robust z, rep 1":0.706,"Wolbachia per cell robust z, rep 2":-0.686,"Wolbachia per cell robust z, rep 3":1.28,"outcome":"inactive"}
{"Gene":"CNBP","amplicon":"DRSC29556","Wolbachia per cell robust z, rep 1":1.05,"Wolbachia per cell robust z, rep 2":0.882,"Wolbachia per cell robust z, rep 3":0.101,"outcome":"inactive"}
{"Gene":"Ude","amplicon":"DRSC15324","Wolbachia per cell robust z, rep 1":0.353,"Wolbachia per cell robust z, rep 2":-3.31,"Wolbachia per cell robust z, rep 3":-1.54,"outcome":"active"}
{"Gene":"CG12209","amplicon":"DRSC06119","Wolbachia per cell robust z, rep 1":-0.977,"Wolbachia per cell robust z, rep 2":-0.731,"Wolbachia per cell robust z, rep 3":-3.53,"outcome":"inactive"}
{"Gene":"Cp15","amplicon":"DRSC11118","Wolbachia per cell robust z, rep 1":0.319,"Wolbachia per cell robust z, rep 2":-0.82,"Wolbachia per cell robust z, rep 3":-0.224,"outcome":"inactive"}
{"Gene":"Cp15","amplicon":"DRSC28629","Wolbachia per cell robust z, rep 1":-0.187,"Wolbachia per cell robust z, rep 2":0.958,"Wolbachia per cell robust z, rep 3":0.644,"outcome":"inactive"}
{"Gene":"Tsp29Fb","amplicon":"DRSC03233","Wolbachia per cell robust z, rep 1":-0.718,"Wolbachia per cell robust z, rep 2":-0.733,"Wolbachia per cell robust z, rep 3":-1.55,"outcome":"inactive"}
{"Gene":"Tsp29Fb","amplicon":"DRSC26296","Wolbachia per cell robust z, rep 1":0.956,"Wolbachia per cell robust z, rep 2":-0.744,"Wolbachia per cell robust z, rep 3":0.671,"outcome":"inactive"}
{"Gene":"Trf5","amplicon":"DRSC38935","Wolbachia per cell robust z, rep 1":-0.081,"Wolbachia per cell robust z, rep 2":-1.21,"Wolbachia per cell robust z, rep 3":-0.199,"outcome":"inactive"}
{"Gene":"CG15564","amplicon":"DRSC15102","Wolbachia per cell robust z, rep 1":0.865,"Wolbachia per cell robust z, rep 2":0.762,"Wolbachia per cell robust z, rep 3":-3.4,"outcome":"inactive"}
{"Gene":"clt","amplicon":"DRSC04621","Wolbachia per cell robust z, rep 1":-0.18,"Wolbachia per cell robust z, rep 2":-0.926,"Wolbachia per cell robust z, rep 3":0.345,"outcome":"inactive"}
{"Gene":"CG7488","amplicon":"DRSC16250","Wolbachia per cell robust z, rep 1":1.18,"Wolbachia per cell robust z, rep 2":-0.409,"Wolbachia per cell robust z, rep 3":0.189,"outcome":"inactive"}
{"Gene":"Ge-1","amplicon":"DRSC02938","Wolbachia per cell robust z, rep 1":-1.87,"Wolbachia per cell robust z, rep 2":-1.64,"Wolbachia per cell robust z, rep 3":-0.872,"outcome":"inactive"}
{"Gene":"Ge-1","amplicon":"DRSC28827","Wolbachia per cell robust z, rep 1":0.83,"Wolbachia per cell robust z, rep 2":1.5,"Wolbachia per cell robust z, rep 3":2.36,"outcome":"inactive"}
{"Gene":"babos","amplicon":"DRSC03923","Wolbachia per cell robust z, rep 1":-0.828,"Wolbachia per cell robust z, rep 2":-0.752,"Wolbachia per cell robust z, rep 3":-0.771,"outcome":"inactive"}
{"Gene":"babos","amplicon":"DRSC04397","Wolbachia per cell robust z, rep 1":-1.01,"Wolbachia per cell robust z, rep 2":0.814,"Wolbachia per cell robust z, rep 3":-0.828,"outcome":"inactive"}
{"Gene":"Dpm2 + CG12016","amplicon":"DRSC25292","Wolbachia per cell robust z, rep 1":-0.937,"Wolbachia per cell robust z, rep 2":0.73,"Wolbachia per cell robust z, rep 3":0.887,"outcome":"inactive"}
{"Gene":"CG31207","amplicon":"DRSC21886","Wolbachia per cell robust z, rep 1":-1.26,"Wolbachia per cell robust z, rep 2":-1.43,"Wolbachia per cell robust z, rep 3":-0.703,"outcome":"inactive"}
{"Gene":"CG34426","amplicon":"DRSC09977","Wolbachia per cell robust z, rep 1":-0.877,"Wolbachia per cell robust z, rep 2":-3.44,"Wolbachia per cell robust z, rep 3":0.306,"outcome":"inactive"}
{"Gene":"CG34426","amplicon":"DRSC41476","Wolbachia per cell robust z, rep 1":-2.04,"Wolbachia per cell robust z, rep 2":0.629,"Wolbachia per cell robust z, rep 3":-1.93,"outcome":"inactive"}
{"Gene":"Miox","amplicon":"DRSC10747","Wolbachia per cell robust z, rep 1":-1.64,"Wolbachia per cell robust z, rep 2":0.709,"Wolbachia per cell robust z, rep 3":0.395,"outcome":"inactive"}
{"Gene":"Miox","amplicon":"DRSC24306","Wolbachia per cell robust z, rep 1":-1.02,"Wolbachia per cell robust z, rep 2":0.81,"Wolbachia per cell robust z, rep 3":0.0212,"outcome":"inactive"}
{"Gene":"CheB93a","amplicon":"DRSC15044","Wolbachia per cell robust z, rep 1":-2.89,"Wolbachia per cell robust z, rep 2":0.886,"Wolbachia per cell robust z, rep 3":1.27,"outcome":"inactive"}
